A mixed list of measured activities; the numbers were collected in NIAID ChemDB.

Shared fields: growth or infection tests; agent: HIV-1; read-out: EC50

a–b is a range or a potency band.

O=C1N(Cc2cccc(-c3ncn[nH]3)c2)[C@H](Cc2ccccc2)[C@H](O)[C@@H](O)[C@@H](Cc2ccccc2)N1Cc1ccc2[nH]ncc2c1 ; cells: MT-2 ; strain or isolate: RF WT ; result: <0.024 µM
Nc1nc2cc(CN3C(=O)N(Cc4ccc5sc(N)nc5c4)[C@H](Cc4ccccc4)[C@H](O)[C@@H](O)[C@H]3Cc3ccccc3)ccc2s1 ; cells: MT-2 ; strain or isolate: RF ; result: <0.95 µM
O=[N+]([O-])c1ccccc1S(=O)(=O)c1ccccc1 ; cells: C-344 ; strain or isolate: RF ; result: 15.9 µM
O=C1N(Cc2ccc(O)cc2)[C@H](Cc2ccccc2)[C@H](O)[C@@H](O)[C@@H](Cc2ccccc2)N1Cc1cccc(-c2ccn[nH]2)c1 ; cells: MT-2 ; strain or isolate: RF ; result: <0.03 µM
CCCNc1n[nH]c2ccc(CN3C(=O)N(Cc4ccc5[nH]nc(NCCC)c5c4)[C@H](Cc4ccccc4)[C@H](O)[C@@H](O)[C@H]3Cc3ccccc3)cc12 ; cells: MT-2 ; strain or isolate: RF ; result: <0.04 µM
CCC(=O)c1cccc(CN2C(=O)N(Cc3cccc(C(=O)CC)c3)[C@H](Cc3ccccc3)[C@H](O)[C@@H](O)[C@H]2Cc2ccccc2)c1 ; cells: MT-2 ; strain or isolate: RF ; result: <0.142 µM
CC(C)CN(C[C@@H](O)[C@H](Cc1ccccc1)NC(=O)O[C@H]1CCOC1)S(=O)(=O)c1ccc(N)cc1 ; cells: MT-4 ; strain or isolate: IIIB ; result: 0.08 µM
CC(C)c1cc2c(c(O)c1O)[C@@]1(C(=O)O)CCCC(C)(C)C1CC2 ; changes: PR-L63P ; cells: PBMC ; strain or isolate: clinical isolate 1(ERS104pre WT X4) ; result: 0.018 µM
CC(C)CN(C[C@@H](O)[C@H](Cc1ccccc1)NC(=O)O[C@H]1CO[C@H]2OCC[C@H]21)S(=O)(=O)c1ccc2c(c1)OCO2 ; strain or isolate: PI-resistant Clinical isolate ; result: <0.01 µM
Cc1cn([C@H]2C[C@H](N=[N+]=[N-])[C@@H](COP3(=O)OCc4cc(Cl)ccc4O3)O2)c(=O)[nH]c1=O ; cells: CEM + CEM/O ; result: 0.005 µM
Nc1ncnc2c1ncn2[C@@H]1CO[C@H](CO)C1 ; cells: MT-4 ; result: 10–20 µM
C[C@@H]1C[C@@H]([C@H](O)CC2CC(=O)NC(=O)C2)C(=O)[C@@H](C)C1 ; cells: MT-2 ; strain or isolate: RF ; result: 0.1 µg/mL
C[C@H]1O[C@@H](O[C@H]2[C@@H](O)C[C@H](O[C@H]3[C@@H](O)C[C@H](O[C@H]4CC[C@@]5(C)[C@H](CC[C@@H]6[C@@H]5C[C@@H](O)[C@]5(C)[C@@H](C7=CC(=O)OC7)CC[C@]65O)C4)O[C@@H]3C)O[C@@H]2C)C[C@H](O)[C@@H]1O ; cells: HeLa ; strain or isolate: LAI ; result: 0.045 µM
Nc1n[nH]c2ccc(CN3C(=O)N(Cc4ccc5ccccc5c4)[C@H](Cc4ccccc4)[C@H](O)[C@@H](O)[C@H]3Cc3ccccc3)cc12 ; cells: MT-2 ; strain or isolate: RF ; result: <0.023 µM
O=C1N(CCCCCO)[C@H](Cc2ccccc2)[C@H](O)[C@@H](O)[C@@H](Cc2ccccc2)N1Cc1cccc(CO)c1 ; cells: MT-2 ; result: <0.076 µM
CC(C)=CCOc1cc(NC(=S)c2ccoc2C)ccc1Cl ; strain or isolate: NL4-3 ; result: 0.006 µM
O=C1N(CCCCO)[C@H](Cc2ccccc2)[C@H](O)[C@@H](O)[C@@H](Cc2ccccc2)N1CCCCO ; cells: MT-2 ; result: <22.7 µM
CCc1nc([N+](=O)[O-])c(N2CCN(C(=O)CNCCCCCCn3c(=O)c(C)cn([C@H]4C[C@H](N=[N+]=[N-])[C@@H](CO)O4)c3=O)CC2)n1Cc1ccccc1 ; cells: MT-4 ; strain or isolate: IIIB ; result: >48 µg/mL
Cc1occc1C(=S)Nc1ccc(Cl)c(/C=N/OC(C)(C)C)c1 ; result: 0.2 µM
NC(=NO)c1cccc(CN2C(=O)N(Cc3cccc(C(N)=NO)c3)[C@H](Cc3ccccc3)[C@H](O)[C@@H](O)[C@H]2Cc2ccccc2)c1 ; cells: MT-2 ; strain or isolate: RF WT ; result: <0.3 µM
Cc1cc2c(C(C)C)c(O)c(O)cc2c(O)c1-c1c(C)cc2c(C(C)C)c(O)c(O)cc2c1O ; cells: PBMC ; strain or isolate: LAV ; result: 0.82 µM
CCC/C(=N\O)c1cccc(CN2C(=O)N(Cc3cccc(/C(CCC)=N/O)c3)[C@H](Cc3ccccc3)[C@H](O)[C@@H](O)[C@H]2Cc2ccccc2)c1 ; cells: MT-2 ; strain or isolate: RF ; result: <0.064 µM
CC(C)Nc1n[nH]c2ccc(CN3C(=O)N(Cc4ccc5[nH]nc(NC(C)C)c5c4)[C@H](Cc4ccccc4)[C@H](O)[C@@H](O)[C@H]3Cc3ccccc3)cc12 ; cells: MT-2 ; strain or isolate: RF ; result: <0.024 µM
Nc1nc(N)c2ncn(CC(CF)OCP(=O)(O)O)c2n1 ; cells: PBL ; strain or isolate: IIIB ; result: 1.85 µM
O=C1N(CCCCCO)[C@H](Cc2ccccc2)[C@H](O)[C@@H](O)[C@@H](Cc2ccccc2)N1Cc1ccccc1 ; cells: MT-2 ; result: <0.398 µM
O=C1N(Cc2ccc3[nH]ncc3c2)[C@H](Cc2ccccc2)[C@H](O)[C@@H](O)[C@@H](Cc2ccccc2)N1Cc1ccc2[nH]ncc2c1 ; cells: MT-2 ; strain or isolate: RF ; result: <0.008 µM
Cc1cn([C@@H]2CC(CO)(CO)CO2)c(=O)[nH]c1=O ; cells: MT-4 ; result: 51 µg/mL
CC(=O)c1cccc(CN2C(=O)N(Cc3cccc(C(C)=O)c3)[C@H](Cc3ccccc3)[C@H](O)[C@@H](O)[C@H]2Cc2ccccc2)c1 ; cells: MT-2 ; strain or isolate: RF ; result: <0.039 µM
CC(C)=CCN1Cc2cc(Cl)cc3[nH]c(=S)n(c23)C[C@@H]1C ; changes: RT-D67N K70R T215Y K219Q Y181C ; cells: MT-4 ; result: <3 µM
Nc1nc(=O)n([C@H]2CS[C@@H](CO)O2)cc1F ; changes: RT M184V FTC-resistant ; cells: PBMC ; strain or isolate: LAI ; result: 92.4 µM
Cc1cc2c(C(C)C)c(O)c(O)c(C=N)c2c(O)c1-c1c(C)cc2c(C(C)C)c(O)c(O)c(C=N)c2c1O ; cells: PBMC ; strain or isolate: LAV ; result: 3.4 µM
COCCNC(=O)[C@@H](NC(=O)[C@H](Cc1ccc(OC)c(OC)c1OC)C[C@H](O)[C@H](Cc1ccccc1)NC(=O)OC(C)(C)C)C(C)C ; setting: chronic infection, inside macrophages ; cells: Macrophages HIV-1 + Macrophage ; result: <1 µM
NC(=O)c1[nH]c2ccc(Cl)cc2c1S(=O)(=O)c1ccccc1 ; result: 0.005 µM
CC(C)(C)NC(=O)[C@@H]1C[C@@H]2CCCC[C@@H]2CN1C[C@@H](O)[C@H](Cc1ccccc1)NC(=O)[C@H](CC(N)=O)NC(=O)c1ccc2ccccc2n1 ; result: 0.002–0.01 µM
O=C1N(Cc2ccc3[nH]c(=O)cnc3c2)[C@H](Cc2ccccc2)[C@H](O)[C@@H](O)[C@@H](Cc2ccccc2)N1Cc1ccc2[nH]c(=O)cnc2c1 ; cells: MT-2 ; strain or isolate: RF ; result: <7.8 µM
Nc1ncnc2c1ncn2CC(CF)OCP(=O)(O)O ; cells: PBL ; strain or isolate: IIIB ; result: 3.9 µM
Nc1ccc(CN2C(=O)N(Cc3ccc4[nH]ncc4c3)[C@H](Cc3ccccc3)[C@H](O)[C@@H](O)[C@H]2Cc2ccccc2)cc1-n1ccnn1 ; cells: MT-2 ; strain or isolate: RF ; result: <0.038 µM
O=C1N(CCCCCCO)[C@H](Cc2ccccc2)[C@H](O)[C@@H](O)[C@@H](Cc2ccccc2)N1CCCCCCO ; cells: MT-2 ; result: <1.508 µM
O=S(=O)(O)c1cc(Nc2nc(Cl)nc(Nc3ccc(Nc4nc(Cl)nc(Nc5cc(S(=O)(=O)O)cc6cc(S(=O)(=O)O)c(N=Nc7ccccc7S(=O)(=O)O)c(O)c56)n4)cc3)n2)c2c(O)c(N=Nc3ccccc3S(=O)(=O)O)c(S(=O)(=O)O)cc2c1 ; cells: MOLT-4 ; strain or isolate: IIIB ; result: 1–10 µM
Nc1nc2ccc(CN3C(=O)N(Cc4ccc5nc(N)[nH]c5c4)[C@H](Cc4ccccc4)[C@H](O)[C@@H](O)[C@H]3Cc3ccccc3)cc2[nH]1 ; cells: MT-2 ; strain or isolate: RF ; result: <8.1 µM
COC(=O)[C@@H](C)NP(=O)(OC[C@@H]1C=C[C@H](n2cc(C)c(=O)[nH]c2=O)O1)Oc1ccccc1 ; cells: CEM ; result: 3 µM
COc1ccc2c(c1)COP(=O)(OC[C@H]1O[C@@H](n3cc(C)c(=O)[nH]c3=O)C[C@@H]1N=[N+]=[N-])O2 ; cells: CEM + CEM/O ; result: 0.006 µM
O=C1CNc2cc(CN3C(=O)N(Cc4ccc5c(c4)NCC(=O)N5)[C@H](Cc4ccccc4)[C@H](O)[C@@H](O)[C@H]3Cc3ccccc3)ccc2N1 ; cells: MT-2 ; strain or isolate: RF ; result: <7.7 µM
O=C1N(CCCCCO)[C@H](Cc2ccccc2)[C@H](O)[C@@H](O)[C@@H](Cc2ccccc2)N1Cc1cccc(O)c1 ; cells: MT-2 ; result: <0.036 µM
Cc1cn([C@H]2C[C@H](N=[N+]=[N-])[C@@H](CO)O2)c(=O)[nH]c1=O ; result: 0.08 µg/mL
CC(C)(O)c1ccc(CN2C(=O)N(Cc3ccc(C(C)(C)O)cc3)[C@H](Cc3ccccc3)[C@H](O)[C@@H](O)[C@H]2Cc2ccccc2)cc1 ; cells: MT-2/MT-4 + MT-2 ; strain or isolate: RF ; result: <8.04 µM
C/C(CO)=C(/Br)Cn1cc(I)c(=O)[nH]c1=O ; cells: MT-4 ; result: >100 µg/mL
C#C[C@]1(CO)O[C@@H](n2cnc3c(N)nc(F)nc32)C[C@@H]1O ; changes: RT-M184V ; result: 0.0031 µM
O=C1N(CCCCCCCO)[C@H](Cc2ccccc2)[C@H](O)[C@@H](O)[C@@H](Cc2ccccc2)N1CCCCCCCO ; cells: MT-2 ; result: <9.013 µM
Cc1ccnc2c1NC(=O)c1cccnc1N2C1CC1 ; result: 0.0372 µM
C=C[C@@]1(CO)CO[C@H](n2ccc(=O)[nH]c2=O)C1 ; cells: MT-4 ; result: 17.3 µg/mL
Cc1nc2ccccc2n1C1CCN(CC[C@H](NC(=O)C2CCC2)c2ccccc2)CC1 ; cells: PM1 ; strain or isolate: BAL R5 ; result: <0.073 µM
Cc1cn([C@H]2C[C@H](N=[N+]=[N-])[C@@H](COP3(=O)OCc4cc([N+](=O)[O-])ccc4O3)O2)c(=O)[nH]c1=O ; cells: CEM + CEM/O ; result: 0.008 µM
Cc1cc2c(C(C)C)c(O)c(O)c(C=Nc3ccc(C(=O)O)cc3)c2c(O)c1-c1c(C)cc2c(C(C)C)c(O)c(O)c(C=Nc3ccc(C(=O)O)cc3)c2c1O ; cells: PBMC ; strain or isolate: LAV ; result: 47.8 µM
O=Cc1cccc(CN2C(=O)N(Cc3cccc(C=O)c3)[C@H](Cc3ccccc3)[C@H](O)[C@@H](O)[C@H]2Cc2ccccc2)c1 ; cells: MT-2 ; strain or isolate: RF ; result: <0.036 µM
Cc1cn([C@H]2C[C@H](N=[N+]=[N-])[C@@H](CO)O2)c(=O)[nH]c1=O ; cells: MT-4 ; result: 0.0005 µg/mL
CC(C)=CCN1Cc2cccc3[nH]c(=O)n(c23)CC1C ; changes: RT-Y181C ; strain or isolate: UC781-RS(RT-Y181C ; result: 11.8 µM
CC(C)Nc1cccnc1N1CCN(C(=O)c2cc3cc(NS(C)(=O)=O)ccc3[nH]2)CC1 ; result: 0.005 µM
CCSc1nc(=O)n([C@H]2C=C[C@@H](CO)O2)cc1C ; cells: C8166 ; result: >50 µM
O=C(Cn1cncn1)c1cccc(CN2C(=O)N(Cc3ccc4[nH]ncc4c3)[C@H](Cc3ccccc3)[C@H](O)[C@@H](O)[C@H]2Cc2ccccc2)c1 ; cells: MT-2 ; strain or isolate: RF ; result: <0.051 µM
O=C1N(CCCCCCO)[C@H](Cc2ccccc2)[C@H](O)[C@@H](O)[C@@H](Cc2ccccc2)N1Cc1ccc2ccccc2c1 ; cells: MT-2 ; result: <0.264 µM
Cc1cn([C@H]2C[C@H](N=[N+]=[N-])[C@@H](CO)O2)c(=O)[nH]c1=O ; cells: CBMC ; strain or isolate: HXB2 ; result: 0.007 µM
CC(=O)Oc1c(-c2c(C)cc3c(C(C)C)c(O)c(O)c(C#N)c3c2OC(C)=O)c(C)cc2c(C(C)C)c(O)c(O)c(C#N)c12 ; cells: PBMC ; strain or isolate: LAV ; result: 26.5 µM
O=c1ccn([C@@H]2CC(CO)(CO)CO2)c(=O)[nH]1 ; cells: MT-4 ; result: >100 µg/mL
C/C(CO)=C(/Br)Cn1cc(C)c(=O)[nH]c1=O ; cells: MT-4 ; result: >100 µg/mL
Cc1cccc2c1OP(=O)(OC[C@H]1O[C@@H](n3cc(C)c(=O)[nH]c3=O)C[C@@H]1N=[N+]=[N-])OC2 ; cells: CEM + CEM/O ; result: 0.006 µM
O=C1N(CCCCCO)[C@H](Cc2ccccc2)[C@H](O)[C@@H](O)[C@@H](Cc2ccccc2)N1CC1CC1 ; cells: MT-2 ; result: <0.814 µM
c1cc(CN2CCCNCCNCCCNCC2)ccc1CN1CCCNCCNCCCNCC1 ; cells: MT-4 ; strain or isolate: NL4-3 ; result: 24.7 nM

Lines come from different laboratories, so protocols vary. ECn: concentration that inhibits the pathogen or its effect by n%.